Assays:
[1] = Fluorescence response to phosphoryl esters
[2] = Luminescence titration with thionyl chloride

In the case of “N,N′-bis(p-aminophenyl)-1,5-bis(p-tetraethyleneglycoloxy)phenyl)anthracene-2,3,6,7,-tetracarboxyl bisimide”, the fluorescence activation ([1]; addition of dimethyl methylphosphonate, an unreactive phosphoryl ester) is reported as “does not”, the fluorescence activation ([1]; addition of reactive phosphoryl esters (e.g. phosphoryl chlorides)) is reported as “activates the fluorescence” and the “fluorescence quantum yield, upper limit” value ([2]; increasing thionyl chloride concentration) is reported as 0.15. For the same substance, the fluorescence quantum yield ([2]; no added thionyl chloride) was 0.

From patent US20080242870A1 (priority 2006, published 2008)
